PubChem BioAssay AID504761 | Drosophila RNAi Screening Center | 2011
Assay: 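Fly genes whose silencing reduces dengue virus type 2 infection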 (primary screen). Cells: D.Mel-2 cells from Drosophila. Reagent: long dsRNA against Drosophila genes. Treatment: infection with dengue virus type 2; dose and infection time not stated. Measured: 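Per well on two replicate plates, imaging gave the percent of cells positive for viral envelope protein, ranked by infection, and a nuclear count of cells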. Scale: infection score: higher = more virus-infected cells; cell count: higher = more cells in the well. Rule for the call: 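Very low infection ranking in both replicate wells (chance probability at most 0.065), then a retest showing infection dropped 1.5-fold or more at p below 0.05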. Meaning of the calls: active = confirmed: knock-down lowers infection; inactive = not picked or not confirmed.
The screen tested about 22,000 reagents; shown is a random part of those with a known target gene and a result. In the full data, 116 (0.52%) are marked active. 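Calls depend on retest data that are not deposited; infection was ranked per plate without normalising between plates; the unit of the infection score is not given.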 Raw values are not corrected between plates. Unmarked entries are inactive. Names joined by + are all predicted targets of the reagent. Not stated in the record: the amount of reagent, the time to read-out.

| gene | PubChem SID | infection score, replicate 1 | infection score, replicate 2 | cell count, replicate 1 | cell count, replicate 2 |
| --- | --- | --- | --- | --- | --- |
| CG10581 | SID104191415 | 12.7 | 9.91 | 5889 | 6096 |
| CG32036 | SID104190154 | 11.8 | 6.72 | 5556 | 5744 |
| CG32036 | SID104206715 | 5.8 | 34.4 | 6987 | 4925 |
| Gr64a (Gustatory receptor 64a) | SID104201388 | 24.9 | 8.35 | 4201 | 6177 |
| JhI-21 (Juvenile hormone Inducible-21) | SID104181953 | 12.7 | 7.3 | 6656 | 6533 |
| JhI-21 (Juvenile hormone Inducible-21) | SID104207725 | 19.6 | 15 | 6012 | 6064 |
| Tnks (tankyrase) | SID104193946 | 9.42 | 4.17 | 5772 | 5809 |
| ND-19 (NADH dehydrogenase (ubiquinone) 19 kDa subunit) | SID104184196 | 1.2 | 2.01 | 6328 | 6700 |
| ND-19 (NADH dehydrogenase (ubiquinone) 19 kDa subunit) | SID104206148 | 12.3 | 12.1 | 6437 | 6383 |
| CG5326 | SID104193360 | 2.17 | 1.62 | 6173 | 5492 |
| CG5326 | SID104195562 | 1.54 | 7.6 | 6756 | 6616 |
| CG5326 | SID104202861 | 0.69 | 0.61 | 6240 | 6182 |
| CG14323 | SID104194594 | 1.39 | 7.2 | 5880 | 5012 |
| CG32262 | SID104187957 | 5.67 | 3.67 | 6046 | 1117 |
| CG32262 | SID104207685 | 2.32 | 23.2 | 517 | 2784 |
| CG9525 | SID104183041 | 8.15 | 5.59 | 5853 | 6079 |
| ss (spineless) | SID104196861 | 5.45 | 10.7 | 6133 | 5919 |
| Ccp84Ab | SID104192379 | 4.26 | 24.6 | 5960 | 5016 |
| Ccp84Ab | SID104203642 | 1.9 | 2.1 | 6801 | 6196 |
| SLO2 (slowpoke 2) | SID104186006 | 14.1 | 14.3 | 5987 | 6422 |
| SLO2 (slowpoke 2) | SID104186008 | 6.65 | 7.95 | 6733 | 6089 |
| SLO2 (slowpoke 2) | SID104186010 | 4.65 | 16.9 | 839 | 6280 |
| SLO2 (slowpoke 2) | SID104202582 | 1.24 | 2.35 | 6469 | 6651 |
| SLO2 (slowpoke 2) | SID104206349 | 14.3 | 5.6 | 6411 | 7023 |
| Tsp42Ei (Tetraspanin 42Ei) | SID104185981 | 16.8 | 16.9 | 5708 | 5364 |
| Tsp42Ei (Tetraspanin 42Ei) | SID104205538 | 7.07 | 4.65 | 6406 | 6190 |
| CG31220 | SID104201774 | 1.92 | 3.5 | 6289 | 6822 |
| CG31220 | SID104203227 | 5.78 | 10.6 | 6853 | 6091 |
| CG32448 | SID104202057 | 6.88 | 2.92 | 6627 | 6443 |
| SREBP (Sterol regulatory element binding protein) | SID104190974 | 0.2 | 0.42 | 505 | 473 |
| Ufsp2 (UFM1 specific peptidase 2) | SID104190023 | 15.2 | 18 | 2008 | 2328 |
| Dop2R (Dopamine 2-like receptor) | SID104200475 | 1.41 | 0.81 | 5597 | 5949 |
| Dop2R (Dopamine 2-like receptor) | SID104207830 | 28.3 | 13.7 | 5084 | 5701 |
| CG14132 | SID104189928 | 1.28 | 7.93 | 6148 | 6244 |
| CG10182 | SID104193994 | 6.17 | – | 1718 | 265 |
| CG10182 | SID104203997 | 5.37 | 7.65 | 6662 | 6524 |
| pyx (pyrexia) | SID104188302 | 2.55 | 8.75 | 6090 | 5852 |
| pyx (pyrexia) | SID104188303 | 4.29 | 16.6 | 6182 | 2385 |
| pyx (pyrexia) | SID104206711 | 7.52 | 34.3 | 6385 | 5215 |
| Tes (Testin) | SID104186788 | 19.4 | 22.1 | 5344 | 5408 |
| CG12551 (retired record) | SID104184649 | 3.07 | 5.99 | 6460 | 6928 |
| CG12551 (retired record) | SID104184656 | 1.95 | 9.96 | 6720 | 6777 |
| CG12551 (retired record) | SID104204269 | 7.68 | 15.6 | 6116 | 6389 |
| CG12551 (retired record) | SID104206123 | 3.56 | 11.2 | 6299 | 6554 |
| Agxt (Alanine-glyoxylate aminotransferase) | SID104198510 | 7.11 | 4.6 | 5890 | 6525 |
| Agxt (Alanine-glyoxylate aminotransferase) | SID104204659 | 4.85 | 1.02 | 6097 | 5961 |
| CG4267 | SID104180439 | 1.94 | 1.57 | 6232 | 6237 |
| CG4267 | SID104207217 | 0.66 | – | 458 | 438 |
| CR18275 + CR18166 + CG32817 | SID104197041 | 1.05 | 0.11 | 6490 | 6229 |
| CG30265 | SID104201299 | 48 | 9.4 | 5388 | 1159 |
| Calr (Calreticulin) | SID104196406 | 2.42 | 5.32 | 5790 | 5510 |
| Calr (Calreticulin) | SID104208435 | 10.8 | 9.37 | 5779 | 5487 |
| Psf1 (Partner of Sld Five 1) | SID104188430 | 3.15 | 8.69 | 6701 | 6455 |
| Psf1 (Partner of Sld Five 1) | SID104203225 | 6.41 | 6.54 | 6861 | 6296 |
| ClpP (Caseinolytic protease proteolytic subunit) | SID104182598 | 4.85 | 14.4 | 6823 | 6040 |
| pcs (parcas) | SID104186834 | 5.31 | 5.34 | 5709 | 6409 |
| CG5902 | SID104195704 | 2.12 | 2.85 | 6091 | 6035 |
| CG17025 (retired record) | SID104207195 | 7.55 | 16.4 | 6248 | 5140 |

7 entries from above, reformatted.
CG12551 (retired record) [SID104206123]
- infection score, replicate 1: 3.56
- infection score, replicate 2: 11.2
- cell count, replicate 1: 6299
- cell count, replicate 2: 6554

Agxt (Alanine-glyoxylate aminotransferase) [SID104198510]
- infection score, replicate 1: 7.11
- infection score, replicate 2: 4.6
- cell count, replicate 1: 5890
- cell count, replicate 2: 6525

Agxt (Alanine-glyoxylate aminotransferase) [SID104204659]
- infection score, replicate 1: 4.85
- infection score, replicate 2: 1.02
- cell count, replicate 1: 6097
- cell count, replicate 2: 5961

CG4267 [SID104180439]
- infection score, replicate 1: 1.94
- infection score, replicate 2: 1.57
- cell count, replicate 1: 6232
- cell count, replicate 2: 6237

CG4267 [SID104207217]
- infection score, replicate 1: 0.66
- cell count, replicate 1: 458
- cell count, replicate 2: 438

CR18275 + CR18166 + CG32817 [SID104197041]
- infection score, replicate 1: 1.05
- infection score, replicate 2: 0.11
- cell count, replicate 1: 6490
- cell count, replicate 2: 6229

CG30265 [SID104201299]
- infection score, replicate 1: 48
- infection score, replicate 2: 9.4
- cell count, replicate 1: 5388
- cell count, replicate 2: 1159
